A mixed list of measured activities; the numbers were collected in NIAID ChemDB.

All rows: tests in culture; organism: HIV-1; cells: HuT-78 + HUT 78; endpoint: EC50

Rows are shuffled and stem from different studies. Blank or dashed fields: not listed here. ECn is the concentration giving n% inhibition of infection, replication or growth.

smiles	strain	method	value
CO[C@@H]1[C@@H](OC(=O)c2ccc(C)[nH]2)[C@@H](O)C(Oc2ccc3c(O)c(NC(=O)c4c[nH]c(C(=O)Nc5c(O)c6ccc(OC7OC(C)(C)[C@H](OC)[C@@H](OC(=O)c8ccc(C)[nH]8)[C@H]7O)c(C)c6oc5=O)c4C)c(=O)oc3c2C)OC1(C)C	-	antigen	0.31 µg/mL
CC(C)(C)NC(=O)[C@@H]1C[C@@H]2CCCC[C@@H]2CN1C[C@@H](O)[C@H](Cc1ccccc1)NC(=O)[C@H](CC(N)=O)NC(=O)c1ccc2ccccc2n1	MVP-899	RT activity	<0.02 µM
COc1ccc(CN[C@@H](C(=O)N[C@H]2c3ccccc3C[C@H]2O)[C@H](O)[C@H](Cc2ccccc2)NC(=O)[C@@H](NC(=O)OCc2ccccc2)C(C)(C)C)cc1	IIIB	p24	0.12 µM
O=C1CN=C(c2ccc[nH]2)c2cc(Cl)ccc2N1	IIIB/LAI	antigen	0.9 µM
O=c1ccn([C@H]2C[C@H](F)[C@@H](CO)O2)c(=O)[nH]1	IIIB	antigen	3.8 µM
COc1ccc(CN[C@@H](C(=O)N[C@H](C(=O)NCc2nc3ccccc3[nH]2)C(C)C)[C@H](O)[C@H](Cc2ccccc2)NC(=O)[C@@H](NC(=O)[C@@](C)(O)c2ccccc2)C(C)(C)C)cc1	IIIB	MTT / p24	0.0268 µM
Cc1cn([C@H]2C[C@H](N=[N+]=[N-])[C@@H](CO)O2)c(=O)[nH]c1=O	IIIB	p24 / ELISA	0.0016 µg/mL
COc1ccc(CN[C@@H](C(=O)N[C@H](C(=O)NCc2nc3ccccc3[nH]2)C(C)C)[C@H](O)[C@H](Cc2ccccc2)NC(=O)[C@@H](NC(=O)OCc2ccccc2)C(C)(C)C)cc1	IIIB	MTT / p24	0.0059 µM
CC(C)C[C@H](NC(=O)[C@@H](O)[C@H](N)Cc1ccccc1)C(=O)O	IIIB	RT activity	20 µg/mL
CO[C@@H]1[C@@H](OC(N)=O)[C@@H](O)[C@H](Oc2ccc3c(O)c(NC(=O)c4ccc(O)c(CC=C(C)C)c4)c(=O)oc3c2C)OC1(C)C	-	antigen	>78 µg/mL
Cc1c(Sc2ccccc2)n(COCCO)c(=O)[nH]c1=O	IIIB	antigen	5.2 µM
COc1ccc(CN[C@@H](C(=O)N[C@H](C(=O)NCc2nc3ccccc3[nH]2)C(C)C)[C@H](O)[C@H](Cc2ccccc2)NC(=O)[C@@H](NC(=O)CCc2ccc(O)cc2)C(C)(C)C)cc1	IIIB	MTT / p24	0.0347 µM
C1CNCCNCCCN(CCCN2CCCNCCNCCCNCC2)CCNC1	IIIB	antigen	0.99 µM
O=c1[nH]c(=O)n([C@H]2C[C@H](F)[C@@H](CO)O2)cc1Cl	IIIB	antigen	1.4 µM

A second listing of 2 rows from above:

| smiles | strain | method | value |
|---|---|---|---|
| Cc1c(Sc2ccccc2)n(COCCO)c(=O)[nH]c1=O | IIIB | antigen | 5.2 µM |
| COc1ccc(CN[C@@H](C(=O)N[C@H](C(=O)NCc2nc3ccccc3[nH]2)C(C)C)[C@H](O)[C@H](Cc2ccccc2)NC(=O)[C@@H](NC(=O)OCc2ccccc2)C(C)(C)C)cc1 | IIIB | MTT / p24 | 0.0059 µM |